Experimental findings from article PMC3440409 are described below.

The target in this data set is T1, His-AphA (Vibrio parahaemolyticus RIMD 2210633) (UniProt Q87L53).
T1 sequence: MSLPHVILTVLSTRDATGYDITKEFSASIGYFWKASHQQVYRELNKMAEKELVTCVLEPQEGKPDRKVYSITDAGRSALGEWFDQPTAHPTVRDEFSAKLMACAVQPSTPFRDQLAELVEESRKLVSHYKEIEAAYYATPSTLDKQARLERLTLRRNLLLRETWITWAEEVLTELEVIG
The data set can be described thus: EMSA. The conditions noted are these: dose-dependent, poly(dI-dC); 1 mM MgCl2, 0.5 mM EDTA, 0.5 mM DTT, 50 mM NaCl, 10 mM Tris-HCl pH 7.5, 0.05 mg/ml poly(dI-dC), 10 ul, room temperature 30 min; footprinting in same buffer; recombinant protein; residues 1-179; label: 5'-32P; probe letters rebuilt from the primers and the genome. On the technique in general: A gel shift assay detects complexes by their altered migration in electrophoresis.

On to “TGTGGGTTGAGGTAGGTCGCACGCAAACGATCACCTAATCTTACGGCGTGTAGTGTATCACCACGAAGAGTGGGTTGAAAGTCACATCCTTTTGCGGAAAATTCTTGGGAGCGCTGCCAAATTTTCGAAAGTTTACAGCAAAACTTATCAATAATAATGACATTACTGTCTATAAATTATCCATCAGATGTTGACCTTGTGCATATGCACCATTACACTCATCACTGCTTAAAGCAATTATTAAAATAATCAATTAGGGGGTTACCCCCAACAACAACTCAAATGGCAAGGAAAATGGATATGGACTCAATTGCAAAGAGACCTAGAACTAGGC (double strand) [opaR promoter fragment (EMSA)]”, for which the binding result is recorded as “binds”.
